Compound potency records, mixed from different reports. Data source: NIAID ChemDB in PubChem.

Common to all: growth or infection tests; agent: Cytomegalovirus

Percent inhibition refers to the dose given; in toxicity tests it is the harm to the cells. Neighbouring rows are from separate reports. Two numbers with a dash give a range or band. ECn is the concentration giving n% inhibition of infection, replication or growth. Blank or dashed fields: not listed here.

Cc1nc(N[C@H]2CCOC[C@@H]2C)nc(-n2ccnc2)c1[N+](=O)[O-] ; read by: plaque count ; measure: inhibition ; tested at: 0.6 µM ; value: 99.9%
CC(C)Nc1nc2cc(Cl)c(Cl)cc2n1[C@H]1O[C@@H](CO)[C@H](O)[C@@H]1O ; strain or isolate: Clinical isolates ; read by: plaque count ; measure: EC50 ; value: 0.12–0.56 µM
Nc1ccn([C@@H]2O[C@H](CO)[C@@H](O)[C@@H]2O)c(=O)n1 ; strain or isolate: TOWNE ; measure: MIC ; value: 1.1 µg/mL
Nc1nc2c(ncn2[C@@H](CCO)SCCO)c(=O)[nH]1 ; cells: HFF ; read by: cytopathic effect ; measure: EC50 ; value: >200 µM
C[C@@]1(O)[C@@H](CO)O[C@@H](n2cnc3c(N)ncnc32)[C@@H]1O ; strain or isolate: AD169 ; cells: VERO ; read by: cytopathic effect ; measure: EC50 ; value: >5 µg/mL
Cc1cn(C(CCN=[N+]=[N-])OCCO)c(=O)[nH]c1=O ; cells: HFF ; read by: cytopathic effect ; measure: EC50 ; value: >200 µM
Nc1nc2c(ncn2COC(CO)CO)c(=O)[nH]1 ; strain or isolate: AD169 ; cells: MRC-5 ; measure: EC50 ; value: 11.8 µM
Cc1cn([C@H]2C[C@H](O[Si](C)(C)C(C)(C)C)[C@@H](/C=C\C#N)O2)c(=O)[nH]c1=O ; strain or isolate: AD169 ; cells: HeLa ; measure: EC50 ; value: 10–20 µM
Cc1cn(C(CCO)OCCO)c(=O)[nH]c1=O ; cells: HFF ; read by: cytopathic effect ; measure: EC50 ; value: >200 µM
Nc1ncnc2c1ncn2[C@@H]1O[C@H](CO)[C@](O)(C(F)(F)F)[C@H]1O ; strain or isolate: DAVIS ; cells: VERO ; read by: cytopathic effect ; measure: EC50 ; value: >50 µg/mL
Nc1nc2c(ncn2COC(CO)CO)c(=O)[nH]1 ; cells: HEL ; measure: inhibition ; tested at: 3 µM ; value: 91%
Nc1nc2c(ncn2COC(CO)CO)c(=O)[nH]1 ; strain or isolate: AD169 ; cells: HFF ; read by: hybridisation ; measure: inhibition ; tested at: 0.3 µM ; value: 6%
CCCCCCCCCCCCCCCC(=O)Nc1cc(S(=O)(=O)O)cc2cc(S(=O)(=O)O)cc(O)c12 ; strain or isolate: AD169 ; cells: MRC-5 ; read by: plaque count ; measure: EC50 ; value: 33 µM
Nc1ccn(C[C@@H](CO)OCP(=O)(O)O)c(=O)n1 ; measure: MIC ; value: 0.08 µg/mL
O=C(CCCCCCC(=O)Nc1cc(S(=O)(=O)O)cc2cc(S(=O)(=O)O)cc(O)c12)Nc1cc(S(=O)(=O)O)cc2cc(S(=O)(=O)O)cc(O)c12 ; strain or isolate: Isolate T-1082 ; cells: MRC-5 ; read by: plaque count ; measure: EC50 ; value: 10 µM
Cc1cc(Sc2ccc(Cl)cc2)c2ncc(CSCCc3ccccc3)n2c1 ; strain or isolate: DAVIS ; read by: plaque count ; measure: EC50 ; value: 2 µg/mL
O=C(CCCCCCCCC(=O)Nc1cc(S(=O)(=O)O)cc2cc(S(=O)(=O)O)cc(O)c12)Nc1cc(S(=O)(=O)O)cc2cc(S(=O)(=O)O)cc(O)c12 ; strain or isolate: AD169 ; cells: MRC-5 ; read by: plaque count ; measure: EC50 ; value: 43 µM
Nc1ncnc2c1ncn2C[C@@H](CO)OCP(=O)(O)O ; measure: MIC ; value: 0.1 µg/mL

For reference, 2 entries again:

| structure | strain or isolate | cells | read by | measure | tested at | value |
|---|---|---|---|---|---|---|
| CC(C)Nc1nc2cc(Cl)c(Cl)cc2n1[C@H]1O[C@@H](CO)[C@H](O)[C@@H]1O | Clinical isolates | - | plaque count | EC50 | - | 0.12–0.56 µM |
| Nc1ncnc2c1ncn2C[C@@H](CO)OCP(=O)(O)O | - | - | - | MIC | - | 0.1 µg/mL |